Anti-infective test results gathered from many reports (values: NIAID ChemDB through PubChem).

All rows: growth or infection tests; agent: Human cytomegalovirus; endpoint: EC50

Blank or dashed fields: not listed here. Rows are shuffled and stem from different studies. ECn: concentration that inhibits the pathogen or its effect by n%. Two numbers with a dash give a range or band.

{"compound": "OC[C@@H]1O[C@H](n2c(NC3CCCC3)nc3cc(Cl)c(Cl)cc32)C[C@H]1O", "strain": "AD169", "cell line": "MRC-5", "method": "hybridisation", "result": "0.1 µM"}
{"compound": "O=c1ccn(Cc2ccccc2)c(=O)n1-c1ccccc1", "strain": "AD169", "result": ">180 µM"}
{"compound": "CCCCOC(=O)N(CC(=O)Nc1ccc(-c2csc(N)n2)cc1)Cc1ccccc1", "cell line": "HS68", "method": "plaque count", "result": "12 µM"}
{"compound": "Nc1ccn([C@@H]2CS[C@H](CO)O2)c(=O)n1", "cell line": "NHDF", "result": ">100 µM"}
{"compound": "Nc1nc2c(ncn2COC(CO)CO)c(=O)[nH]1", "strain": "CMV5USA", "cell line": "HEL", "method": "plaque count", "result": "0.7 µg/mL"}
{"compound": "Cc1cc(C)cc(Cn2c(=O)ccn(CC#N)c2=O)c1", "strain": "AD169", "result": ">74 µM"}
{"compound": "Nc1ncnc2c1ncn2[C@@H]1C[C@H](CO)[C@@H](O)[C@H]1O", "strain": "AD-169 (100 PFU)", "cell line": "HEL", "method": "cytopathic effect", "result": ">100 µg/mL"}
{"compound": "Nc1ncnc2[pH]cnc12", "cell line": "MRC-5", "method": "plaque count", "result": "8.08 µg/mL"}
{"compound": "CCCCCCCCCCCCCCCCCCSC[C@H](O)COP(=O)(O)C(=O)O", "cell line": "MRC-5", "result": "0.71 µM"}
{"compound": "Cc1cc(O)c2c(c1)C(=O)c1cccc(O)c1C2=O", "strain": "AD169", "cell line": "MRC-5", "method": "plaque count", "result": ">39.3 µM"}
{"compound": "N=C(N)c1cn([C@@H]2O[C@H](CO)[C@@H](O)[C@@H]2O)c2ncnc(N)c12", "strain": "AD169", "cell line": "MRC-5", "method": "plaque count", "result": "35 µM"}
{"compound": "Cc1ccccc1Cn1c(=O)ccn(CC#N)c1=O", "strain": "AD169", "result": "78 µM"}
{"compound": "NC(=S)c1cn([C@@H]2O[C@H](CO)[C@@H](O)[C@@H]2O)c2ncnc(N)c12", "strain": "AD169", "cell line": "MRC-5", "method": "plaque count", "result": "1.5 µM"}
{"compound": "Nc1nc2ncn(COCCCl)c2c(=O)[nH]1", "strain": "AD169", "cell line": "VERO", "method": "cytopathic effect", "result": ">128 µg/mL"}
{"compound": "C[C@@]12COCO[C@@H]1CC[C@@]1(C)[C@H]2CC[C@H]2C[C@@H]3CC21CCC31COCO1", "cell line": "HFF", "method": "plaque count", "result": ">500 µM"}
{"compound": "Cc1cc(=O)c2c(O)c3c(O)cc(O)c4c5c(O)cc(O)c6c(O)c7c(=O)cc(C)cc7c(c65)c(c2c1)c34", "strain": "AD169", "cell line": "MRC-5", "method": "plaque count", "result": "5.7 µM"}
{"compound": "C[C@H](Cn1cnc2c(NC3CC3)ncnc21)OCP(=O)(O)O", "strain": "DAVIS", "result": "0.12 µg/mL"}
{"compound": "O=C(O)P(=O)(O)O", "cell line": "MRC-5", "result": "39.7 µM"}
{"compound": "CC(C)COC(=O)C(O)Cn1cnc2c(N)ncnc21", "strain": "AD-169 (100 PFU)", "cell line": "HEL", "method": "cytopathic effect", "result": "22.5 µg/mL"}
{"compound": "N#Cc1cn([C@@H]2O[C@H](CO)[C@@H](O)[C@@H]2Cl)c2ncnc(N)c12", "strain": "TOWNE", "cell line": "HFF", "method": "virus yield", "result": "<75 µM"}
{"compound": "COc1cc(Cn2c(=O)ccn(CC#N)c2=O)cc(OC)c1", "strain": "AD169", "result": ">166 µM"}
{"compound": "Nc1nccc2c1ncn2[C@@H]1C[C@H](CO)[C@@H](O)[C@H]1O", "strain": "DAVIS (100 PFU)", "cell line": "HEL", "method": "cytopathic effect", "result": "8.12 µg/mL"}
{"compound": "Cc1cc(=O)c2c(O)c3c(O)cc(O)c4c5c(O)cc(O)c6c(O)c7c(=O)cc(C)c8c1c2c(c34)c(c65)c78", "strain": "AD169", "cell line": "MRC-5", "method": "plaque count", "result": "1.8 µM"}
{"compound": "Cc1cc(C)cc(Cn2ccc(=O)n(Cc3cc(C)cc(C)c3)c2=O)c1", "strain": "AD169", "result": ">14 µM"}
{"compound": "C[C@]12CC[C@@H]3c4ccc(O)cc4CC[C@H]3[C@@H]1CC[C@@H]2O", "strain": "TOWNE", "cell line": "HEL", "method": "virus yield", "result": ">20 µM"}
{"compound": "CC(=O)OC[C@@]1(O)CCC23C[C@H]1C[C@@H]2CC[C@@H]1[C@]3(C)CCC(=O)[C@@]1(C)COS(=O)(=O)c1ccc(C)cc1", "cell line": "HFF", "method": "plaque count", "result": ">500 µM"}
{"compound": "Nc1ccn(C[C@@H](CO)OCP(=O)(O)O)c(=O)n1", "strain": "DER530 (GCV HPMPC-resistant)", "cell line": "HEL", "method": "plaque count", "result": "2.4 µg/mL"}
{"compound": "Cc1cn([C@H]2C[C@H](N=[N+]=[N-])[C@@H](CO)O2)c(=O)[nH]c1=O", "cell line": "NHDF", "result": ">100 µM"}
{"compound": "CC(C)(C)C(=O)OCOP(=O)(COCCn1cnc2c(N)ncnc21)OCOC(=O)C(C)(C)C", "strain": "AD169", "cell line": "MRC-5", "method": "plaque count", "result": "65 µM"}
{"compound": "Nc1nccc2c1ncn2[C@@H]1O[C@H](CO)[C@@H](O)[C@H]1O", "strain": "DAVIS (100 PFU)", "cell line": "HEL", "method": "cytopathic effect", "result": "10 µg/mL"}
{"compound": "CC(C)(CCl)C(=O)Nc1ccc(NS(=O)(=O)c2cccc3ccccc23)cc1", "result": "0.087 µM"}
{"compound": "NC(=O)c1ncn([C@@H]2O[C@H](CO)[C@@H](O)[C@H]2O)n1", "strain": "AD-169 (100 PFU)", "cell line": "HEL", "method": "cytopathic effect", "result": ">100 µg/mL"}
{"compound": "N#CCn1ccc(=O)n(Cc2ccc3ccccc3c2)c1=O", "strain": "AD169", "result": ">69 µM"}
{"compound": "c1ccc([C@H]2O[C@@H]2c2ccccc2)cc1", "strain": "TOWNE", "cell line": "HEL", "method": "virus yield", "result": ">50 µM"}
{"compound": "CCCCCCCCCCCCCCCCSC[C@H](O)COP(=O)(O)C(=O)O", "cell line": "MRC-5", "result": "1.1 µM"}
{"compound": "N#Cc1cn([C@@H]2O[C@H](CO)[C@@H](O)[C@@H]2O)c2ncnc(N)c12", "strain": "TOWNE", "cell line": "HFF", "method": "virus yield", "result": "<14 µM"}
{"compound": "CCCCCCCCCCCCCCCCCCOC[C@@H](O)COP(=O)(O)C(=O)O", "cell line": "MRC-5", "result": "0.7 µM"}
{"compound": "C(/C=C/c1ccccc1)=C\\c1ccccc1", "strain": "TOWNE", "cell line": "HEL", "method": "virus yield", "result": ">50 µM"}
{"compound": "O=c1[nH]cnc2c1ncn2[C@H]1CC[C@@H](CO)O1", "cell line": "NHDF", "result": ">100 µM"}
{"compound": "C(=C\\c1ccncc1)/c1ccncc1", "strain": "TOWNE", "cell line": "HEL", "method": "virus yield", "result": ">50 µM"}
{"compound": "CCCC/C(O)=C(\\C#N)C(=O)Nc1ccc(C(F)(F)F)cc1", "strain": "TW-087", "cell line": "HEL 299", "method": "plaque count", "result": "1040–1150 µM"}
{"compound": "NC(=O)c1cn([C@@H]2O[C@H](CO)[C@@H](O)[C@@H]2O)c2ncnc(N)c12", "strain": "TOWNE", "cell line": "HFF", "method": "virus yield", "result": "<1 µM"}
{"compound": "COC(=O)[C@H](C)NP(=O)(OC[C@H]1C/C1=C/n1cnc2c(N)nc(N)nc21)Oc1ccccc1", "strain": "AD169", "cell line": "HFF", "method": "plaque count", "result": "7.8 µM"}
{"compound": "N#Cc1cn([C@@H]2O[C@H](CO)[C@@H](O)[C@@H]2N=[N+]=[N-])c2ncnc(N)c12", "strain": "TOWNE", "cell line": "HFF", "method": "virus yield", "result": "<37 µM"}
{"compound": "CC1(C)OC[C@]2(C)[C@@H](CC[C@@]3(C)[C@H]2CC[C@H]2C[C@@H]4[C@H](O)C23CCC42OC(C)(C)O2)O1", "cell line": "HFF", "method": "plaque count", "result": ">500 µM"}
{"compound": "NC(=S)c1cn([C@H]2C[C@H](O)[C@@H](CO)O2)c2ncnc(N)c12", "strain": "AD169", "cell line": "MRC-5", "method": "plaque count", "result": "4 µM"}
{"compound": "CC(C)Oc1ccccc1CNC(=O)c1nc2ccncc2s1", "result": "0.1–10 µg/mL"}
{"compound": "COC(=O)[C@H](C)NP(=O)(OC[C@H]1C/C1=C/n1cnc2c(OC)nc(N)nc21)Oc1ccccc1", "strain": "AD169", "cell line": "HFF", "method": "plaque count", "result": "4.5 µM"}
{"compound": "C[C@H]1O[C@@H](n2c(NC3CC3)nc3cc(Cl)c(Cl)cc32)[C@H](O)[C@@H]1O", "strain": "AD169", "cell line": "MRC-5", "result": "1.1 µM"}
{"compound": "Cc1cccc(Cn2c(=O)ccn(CC#N)c2=O)c1", "strain": "AD169", "result": ">196 µM"}
{"compound": "N/C(=N/O)c1cn([C@H]2C[C@H](O)[C@@H](CO)O2)c2ncnc(N)c12", "strain": "AD169", "cell line": "MRC-5", "method": "plaque count", "result": "9 µM"}
{"compound": "OC[C@@H]1O[C@H](n2c(Br)nc3cc(Cl)c(Cl)cc32)C[C@H]1O", "strain": "AD169", "cell line": "MRC-5", "method": "hybridisation", "result": "26 µM"}
{"compound": "O=C(O)C[C@H](NCCN[C@@H](CC(=O)O)C(=O)O)C(=O)O", "strain": "AD169", "cell line": "HEL", "method": "plaque count", "result": "9.1 µg/mL"}
{"compound": "Br[C@H](c1ccccc1)[C@H](Br)c1ccccc1", "strain": "TOWNE", "cell line": "HEL", "method": "virus yield", "result": ">50 µM"}
{"compound": "O=C1c2cccc(O)c2C(=O)c2c(O)cccc21", "strain": "AD169", "cell line": "MRC-5", "method": "plaque count", "result": ">41.6 µM"}
{"compound": "CO[C@@H]1[C@H](OP(O)(=S)OC[C@H]2O[C@@H](n3cnc4c(N)ncnc43)C[C@@H]2O)[C@@H](CO)O[C@H]1n1ccc(=O)[nH]c1=O", "strain": "AD169", "result": ">20 µM"}
{"compound": "OC[C@@H]1O[C@H](n2c(NC3CC3)nc3cc(Cl)c(Cl)cc32)C[C@H]1O", "strain": "AD169", "cell line": "MRC-5", "method": "hybridisation", "result": "0.17 µM"}
{"compound": "Nc1nc(NC2CC2)c2ncn(C=C3CC3CO)c2n1", "strain": "TOWNE", "cell line": "HFF", "method": "plaque count", "result": "0.4 µM"}

Again, the opening 4 rows:

compound | strain | cell line | method | result
OC[C@@H]1O[C@H](n2c(NC3CCCC3)nc3cc(Cl)c(Cl)cc32)C[C@H]1O | AD169 | MRC-5 | hybridisation | 0.1 µM
O=c1ccn(Cc2ccccc2)c(=O)n1-c1ccccc1 | AD169 |  |  | >180 µM
CCCCOC(=O)N(CC(=O)Nc1ccc(-c2csc(N)n2)cc1)Cc1ccccc1 |  | HS68 | plaque count | 12 µM
Nc1ccn([C@@H]2CS[C@H](CO)O2)c(=O)n1 |  | NHDF |  | >100 µM